## Structure probing of HIV-1 leader RNA with DMS

From the data files of Ye et al. 2022, doi:10.1038/s41594-022-00746-2.

Sequence of the HIV-1 NL4-3 5' RNA, positions 1 to 437, as numbered in the source:
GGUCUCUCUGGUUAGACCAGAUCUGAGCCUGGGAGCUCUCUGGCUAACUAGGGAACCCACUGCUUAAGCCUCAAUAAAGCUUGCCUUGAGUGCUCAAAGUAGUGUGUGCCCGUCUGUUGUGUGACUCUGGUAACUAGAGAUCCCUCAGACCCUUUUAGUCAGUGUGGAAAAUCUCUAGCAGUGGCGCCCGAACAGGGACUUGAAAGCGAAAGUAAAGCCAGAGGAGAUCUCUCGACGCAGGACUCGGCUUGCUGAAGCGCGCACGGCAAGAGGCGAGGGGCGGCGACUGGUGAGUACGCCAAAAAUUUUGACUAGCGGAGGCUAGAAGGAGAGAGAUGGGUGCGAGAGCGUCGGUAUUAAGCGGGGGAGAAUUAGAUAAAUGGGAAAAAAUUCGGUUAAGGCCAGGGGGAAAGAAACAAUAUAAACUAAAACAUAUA

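Mutant RNA libraries with 1G, 2G or 3G starts, with or without cap, were folded at 37 °C for 30 min. Monomer and dimer bands were cut from native gels after folding in high salt (300 mM KCl, 5 mM MgCl2) or low salt (40 mM KCl, 0.1 mM MgCl2). Gel slices were treated with 170 mM dimethyl sulfate for 15 min at 37 °C and read by mutational profiling against an ethanol control.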

Scale: normalised reactivity, A and C only; low values point to paired or protected bases, higher values to unpaired ones.
Sample: 2G uncapped high-salt dimer.
One numbering serves 1G, 2G and 3G.
A position is written with its base.

C23 read 1.12.
C28 read 0.03.
A34 read 1.02.
C40 read 0.03.
A50 read 0.14.
A55 read 0.26.
C56 read 0.03.
A74 read 0.53.
A76 read 0.26.
C85 read 0.38.
C95 read 0.51.
A97 read 0.29.
A98 read 0.24.
C125 read 0.09.
C127 read 0.03.
A138 read 0.10.
A140 read 0.30.
C142 read 0.06.
A147 read 0.44.
C150 read 0.04.
C152 read 0.82.
A157 read 0.93.
C160 read 0.04.
A161 read 0.45.
A168 read 0.41.
A169 read 0.65.
A170 read 0.52.
A171 read 0.44.
C179 read 0.78.
A180 read 0.58.
C189 read 0.10.
A191 read 0.41.
A198 read 0.56.
A220 read 0.24.
C229 read 0.14.
C238 read 0.41.
C243 read 0.03.
A255 read 0.54.
C260 read 0.28.
A271 read 0.53.
A286 read 0.66.
A293 read 0.91.
A296 read 0.58.
C300 read 0.09.
A303 read 0.08.
A304 read 0.19.
A305 read 0.65.
C316 read 0.05.
A324 read 0.07.
A326 read 0.92.
A336 read 0.81.
C343 read 0.33.
A347 read 0.31.
C349 read 0.34.
A356 read 0.90.
A359 read 0.64.
C362 read 0.37.
A368 read 0.72.
A370 read 0.53.
A374 read 0.56.
A386 read 1.21.
A388 read 0.10.
A389 read 0.23.
A399 read 0.28.
A411 read 0.83.
A416 read 0.39.
C426 read 0.74.
A437 read 0.03.

Excerpt, the final 9 entries:

position,2G uncapped high-salt dimer
A374,0.56
A386,1.21
A388,0.10
A389,0.23
A399,0.28
A411,0.83
A416,0.39
C426,0.74
A437,0.03